The values that follow come from paper doi:10.1101/2021.06.17.448816 (bioRxiv, 2021).

In assay [1] the target is T1, Full-length human primosome (Pol α: […]; B subunit: […]; PriS: […]; PriL: […]) (human).
T1 construct: also called DNA polymerase α - primase complex; Pol α - primase
The assay can be described thus: pull-down. To be noted: both partners purified.

Assay [2] concerns the target T2, Truncated human primosome (Pol α: […]; B subunit: […]; PriS: […]; PriL: […]) (human).
T2 construct: also called truncated primosome; Pol α - primase
The assay can be described thus: pull-down. To be noted: both partners purified.

B1: MBP-tagged SARS-CoV-2 nsp1 (full-length, His6-MBP fusion) (natural protein)
chain: not shown
With B1, the binding result in assay [1] and in assay [2] was “binds” in each case.
